Experimental data published in patent US20260216325A1, “NOVEL IMIDAZOPYRIMIDINE COMPOUND AND USES THEREOF” (The Children's Medical Center Corporation, priority 2023, published 2026).

Tested on: C57BL/6 adult mice
Assay type: in vivo
Settings: 100 nmoles/mouse IM with spike, single immunization, 28 days post-immunization

Cc1cnc2nc(-c3ccc(C)c(NC(=O)c4ccc(CN)cc4C(F)(F)F)c3)cn2c1 [Compound (1), 4-(Aminomethyl)-N-(2-methyl-5-(6-methylimidazo[1,2-a]pyrimidin-2-yl)phenyl)-2-(trifluoromethyl) benzamide]
drove enhancement: WT spike-specific IgG1 titers | WT spike-specific IgG2c titers | WT spike-specific IgG titers
